# Experimental data reported in ChEMBL document CHEMBL1147176, “Synthesis of S-dialkylarsino-3-mercapto-1,2-propanediols and evaluation of their anticancer activity” (2007).
# Legend:
# SK-MEL-28 = assay: Anticancer activity against human SK-MEL-28 cells assessed as growth inhibition; type: functional
# How it was run: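 NCI in vitro disease-oriented human tumor cell screen, about 60 lines. Growth inhibition read as pGI50, the -log of the molar concentration inhibiting 50% net cell growth. A mean graph midpoint is the arithmetic mean over all tested lines. Where the effect was not reached within the concentration interval, the highest tested concentration was used.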
# SNB-75 = assay: Anticancer activity against human SNB75 cells assessed as growth inhibition; type: functional, cell-based
# SK-MEL-2 = assay: Anticancer activity against human SK-MEL-2 cells assessed as growth inhibition; type: functional, cell-based
# UACC-257 = assay: Anticancer activity against human UACC257 cells assessed as growth inhibition; type: functional, cell-based
# MDA-MB-231 = assay: Anticancer activity against human MDA-MB231/ATCC cells assessed as growth inhibition; type: functional, cell-based
smiles,measurement,setting,value
CCC[As](CCC)SCC(O)CO (centres undefined),GI50,SK-MEL-28,155 nM
C[As](C)SCC(O)CO (centres undefined),GI50,SK-MEL-28,282 nM
CC[As](CC)SCC(O)CO (centres undefined),GI50,SK-MEL-28,132 nM
CC(=O)OCC(CS[As](C)C)OC(C)=O (centres undefined),GI50,SNB-75,2290 nM
same,GI50,SK-MEL-2,708 nM
same,GI50,SK-MEL-28,2450 nM
same,GI50,UACC-257,102 nM
same,GI50,MDA-MB-231,141 nM
CC(C)[As](SCC(O)CO)C(C)C (centres undefined),GI50,SK-MEL-28,1200 nM
